## Share of PSTVd loop 15 variants by leaf site

From the data files of Wu et al. 2024, doi:10.1371/journal.ppat.1012142.

The pool varies loop 15 of the PSTVd intermediate strain in the pattern GGAAACCGNNNNNNC; wild type is GGAAACCGCUACUAC (upper and lower strand joined, each 5' to 3', the first 7 letters being the upper strand, closing pairs included).

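Three N. benthamiana plants were inoculated with the whole mutant pool. Samples came from the inoculated region at 5 days, the leaf margin at 10 and upper systemic leaves at 12.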

Values are reads per thousand in the sample; higher means more abundant, 0 means not found. Each site shows the three plants. "Pool" is the share in the plasmid pool used as inoculum, on the same scale. The inoculated region was read from the minus strand, the other sites from the plus strand. Samples held 43,870 to 66,106 reads, so the smallest values rest on one or two reads. Wild type was 33.9 per thousand in the pool and the most common sequence in every sample (inoculated region 202, 200, 159; leaf margin 724, 746, 710; systemic leaves 856, 883, 880). Sequences that differ at fixed positions probably stem from PCR or sequencing errors, and defective variants can be carried along by functional ones.

sequence	pool	inoculated region	leaf margin	systemic leaves
GGAAACCGAAUCGCC	0.144	0.0983 / 0.0803 / 0.0381	0 / 0 / 0	0 / 0 / 0
GGAAACCGACUACCC	0.192	0.115 / 0.0643 / 0.0762	0 / 0 / 0.0401	0 / 0 / 0
GGAAACCGACUUACC	0.208	0.0983 / 0.0482 / 0.0762	0.0162 / 0 / 0	0 / 0 / 0
GGAAACCGAGAACGC	0.144	0.115 / 0.0482 / 0.114	0.0162 / 0 / 0	0 / 0 / 0
GGAAACCGAGACAAC	0.208	0.229 / 0.337 / 0.343	0.0323 / 0.0668 / 0.100	0.0644 / 0 / 0
GGAAACCGAGAUGAC	0.176	0.115 / 0.145 / 0.0571	0 / 0 / 0.0200	0 / 0 / 0
GGAAACCGAGGGGCC	0.224	0.0491 / 0.0643 / 0.0571	0 / 0 / 0.0200	0 / 0 / 0
GGAAACCGAUCCCGC	0.272	0.0655 / 0.0482 / 0.0571	0 / 0 / 0.0200	0 / 0 / 0
GGAAACCGAUCUUCC	0.288	0.0983 / 0.0482 / 0.0571	0 / 0.0223 / 0	0 / 0 / 0
GGAAACCGAUGCUAC	0.288	0.311 / 0.305 / 0.343	0.194 / 0.156 / 0.140	0.0644 / 0 / 0
GGAAACCGAUGUAAC	0.304	0.0819 / 0.0321 / 0.0571	0.0162 / 0.0223 / 0.0401	0.0161 / 0 / 0
GGAAACCGAUUAUCC	0.336	0.0164 / 0.129 / 0.152	0 / 0 / 0.0801	0 / 0 / 0
GGAAACCGCAACGUC	0.128	0.0491 / 0.0964 / 0.114	0.0323 / 0 / 0.0401	0.0161 / 0 / 0
GGAAACCGCAAGACC	0.176	0.0819 / 0.0643 / 0.0190	0.0323 / 0 / 0.0200	0 / 0 / 0
GGAAACCGCACGGGC	0.352	0.131 / 0.112 / 0.0952	0 / 0 / 0	0 / 0 / 0
GGAAACCGCAUUAGC	0.128	0.115 / 0.0482 / 0.133	0 / 0 / 0.0200	0 / 0 / 0
GGAAACCGCAUUGCC	0.224	0.131 / 0.0803 / 0.114	0.0162 / 0 / 0	0 / 0 / 0
GGAAACCGCCAGUGC	0.272	0.246 / 0.450 / 0.400	0.113 / 0.156 / 0.120	0.129 / 0.0303 / 0.114
GGAAACCGCCGUCAC	0.176	0.295 / 0.177 / 0.190	0 / 0 / 0	0.0161 / 0 / 0.0228
GGAAACCGCGCUGUC	0.160	0.131 / 0.112 / 0.0952	0.0323 / 0 / 0	0.0161 / 0 / 0
GGAAACCGCGUAAGC	0.320	0.0819 / 0.0321 / 0.0381	0 / 0 / 0	0 / 0 / 0
GGAAACCGCGUCUGC	0.336	0.164 / 0.0321 / 0.0952	0.0162 / 0 / 0	0 / 0 / 0.0228
GGAAACCGCGUGCCC	0.320	0.0655 / 0.0803 / 0.0952	0 / 0.0223 / 0	0 / 0 / 0
GGAAACCGCUCAUGC	0.304	0.0819 / 0.0803 / 0.209	0 / 0 / 0.0401	0 / 0 / 0
GGAAACCGCUGCGAC	0.176	0.0819 / 0.0482 / 0.0952	0 / 0 / 0.0401	0 / 0 / 0
GGAAACCGGAAUCCC	0.256	0.0491 / 0.0803 / 0.0762	0 / 0 / 0.0200	0 / 0 / 0
GGAAACCGGAAUUCC	0.144	0.0491 / 0.0803 / 0.0952	0 / 0.0223 / 0.0401	0 / 0 / 0
GGAAACCGGAAUUUC	0.224	0.278 / 0.273 / 0.419	0.0970 / 0.134 / 0.140	0.0966 / 0 / 0
GGAAACCGGAGGGUC	0.256	0.0983 / 0.0803 / 0.190	0 / 0 / 0.0200	0 / 0 / 0
GGAAACCGGCCGUAC	0.144	0.295 / 0.466 / 0.419	0.129 / 0.0223 / 0.140	0.0483 / 0.0454 / 0.114
GGAAACCGGCCGUUC	0.256	0.393 / 0.402 / 0.438	0.0808 / 0.111 / 0.120	0.0483 / 0.0756 / 0.0228
GGAAACCGGCGUUCC	0.112	0.0328 / 0.0964 / 0.114	0.0162 / 0 / 0.0200	0 / 0 / 0
GGAAACCGGCUUAUC	0.160	0.147 / 0.0803 / 0.0952	0 / 0 / 0	0.0161 / 0 / 0
GGAAACCGGGCACCC	0.368	0.0655 / 0.0964 / 0.133	0 / 0 / 0	0 / 0 / 0
GGAAACCGGGGGCCC	0.288	0.164 / 0.0964 / 0.152	0.0162 / 0 / 0	0.0322 / 0 / 0
GGAAACCGGUAACCC	0.160	0.0983 / 0.0321 / 0.152	0.0162 / 0 / 0	0 / 0 / 0
GGAAACCGGUAGAGC	0.224	0.0819 / 0.0803 / 0.114	0 / 0 / 0.0401	0 / 0 / 0
GGAAACCGGUGCUGC	0.240	0.115 / 0.0803 / 0.133	0.0162 / 0 / 0.0601	0.0161 / 0 / 0
GGAAACCGUAGAAUC	0.240	0.0164 / 0.145 / 0.0762	0 / 0 / 0	0 / 0 / 0
GGAAACCGUAUAUUC	0.224	0.246 / 0.209 / 0.457	0.0323 / 0.0668 / 0.220	0.0322 / 0 / 0
GGAAACCGUCCACAC	0.160	0.164 / 0.0803 / 0.190	0 / 0 / 0.0200	0 / 0 / 0
GGAAACCGUCCAGGC	0.272	0.147 / 0.112 / 0.0571	0 / 0.0223 / 0	0 / 0 / 0
GGAAACCGUCCGCUC	0.288	0.311 / 0.353 / 0.286	0 / 0 / 0.0601	0 / 0 / 0
GGAAACCGUCGAGUC	0.224	0.0983 / 0.0803 / 0.0762	0.0323 / 0 / 0	0 / 0 / 0
GGAAACCGUCGCAGC	0.288	0.0164 / 0.0321 / 0.0381	0.0162 / 0 / 0.0401	0 / 0 / 0.0228
GGAAACCGUCGCGCC	0.240	0.164 / 0.112 / 0.0762	0.0162 / 0 / 0	0 / 0 / 0
GGAAACCGUCGGGUC	0.160	0.0655 / 0.0964 / 0.0381	0.0162 / 0 / 0.0401	0 / 0 / 0
GGAAACCGUCUUAAC	0.272	0.147 / 0.177 / 0.133	0 / 0 / 0.0200	0.0483 / 0 / 0
GGAAACCGUGCAAUC	0.384	0.213 / 0.161 / 0.133	0 / 0 / 0.0200	0 / 0.0303 / 0
GGAAACCGUGGCGUC	0.224	0.115 / 0.0803 / 0.0762	0.0162 / 0.0223 / 0	0.0161 / 0 / 0
GGAAACCGUGGGUUC	0.224	0.344 / 0.241 / 0.362	0.0808 / 0.0668 / 0.0801	0.0161 / 0.0454 / 0.0912
GGAAACCGUGUAUAC	0.224	0.278 / 0.353 / 0.438	0.178 / 0.178 / 0.140	0.0644 / 0.0454 / 0.228
GGAAACCGUGUUCCC	0.272	0.0655 / 0.0482 / 0.0571	0 / 0 / 0.0200	0 / 0 / 0
GGAAACCGUUAUUUC	0.352	0.311 / 0.337 / 0.362	0.146 / 0.0223 / 0.180	0.0805 / 0.0605 / 0.0684
GGAAACCGUUCGAGC	0.224	0.295 / 0.321 / 0.324	0 / 0 / 0	0.0161 / 0 / 0
GGAAACCGUUCGGUC	0.320	0.278 / 0.129 / 0.457	0.0808 / 0.0445 / 0.120	0.0483 / 0 / 0
GGAAACCGUUCUGGC	0.368	0.0983 / 0.129 / 0.0571	0 / 0 / 0.0200	0 / 0 / 0
GGAAACCGUUGGCGC	0.240	0.0655 / 0.0803 / 0.0381	0 / 0.0223 / 0	0 / 0 / 0
GGAAACCGUUGUGUC	0.352	0.0819 / 0.0964 / 0.0381	0.0323 / 0 / 0	0 / 0 / 0

Excerpt, the final 4 entries:

- GGAAACCGUUCGGUC (pool 0.320) -> inoculated region 0.278 / 0.129 / 0.457; leaf margin 0.0808 / 0.0445 / 0.120; systemic leaves 0.0483 / 0 / 0
- GGAAACCGUUCUGGC (pool 0.368) -> inoculated region 0.0983 / 0.129 / 0.0571; leaf margin 0 / 0 / 0.0200; systemic leaves 0 / 0 / 0
- GGAAACCGUUGGCGC (pool 0.240) -> inoculated region 0.0655 / 0.0803 / 0.0381; leaf margin 0 / 0.0223 / 0; systemic leaves 0 / 0 / 0
- GGAAACCGUUGUGUC (pool 0.352) -> inoculated region 0.0819 / 0.0964 / 0.0381; leaf margin 0.0323 / 0 / 0; systemic leaves 0 / 0 / 0